{"source": "ChEMBL document CHEMBL1687729", "about": "“Intracellular activity of antibiotics in a model of human THP-1 macrophages infected by a Staphylococcus aureus small-colony variant strain isolated from a cystic fibrosis patient: pharmacodynamic evaluation and comparison with isogenic normal-phenotype and revertant strains” (Antimicrob Agents Chemother, 2009)", "tested_on": "Staphylococcus aureus", "data": [{"sequence": "GENTAMICIN", "values": [{"measurement": "MIC", "result": 0.5, "unit": "µg/mL"}]}]}
